The target of this assay is Guanylate cyclase C (GC-C) on human T84 cells (human), P25092. The assay can be described thus: cell-based or functional assay.

B1: Peptide 20 (peptide)
peptide: DDDCCELCCNPACTGC
modifications: not checked
In the case of B1, the Ratio EC50 pH 8/EC50 pH 5 came out at 90.
